Results published in US5599839A, “Antiviral composition” (The United States of America as represented by the …, priority 1995, dated 1997).

System: HIV-1 (RF variant) in CEM-SS cells
Experiment: XTT-tetrazolium anti-HIV assay (HIV-1-infected CEM-SS cells)
Type: cell-based
Text: Cancer Inst. […] Cancer Inst. 81:1254-1258, (1989)] but with several modifications.
Philadelphia: Lippincott, 1988, pp. 305-317; Weislow et al.: J. Nat. Cancer Inst. […] Cancer Inst. 81:1254-1258, (1989)].

Compound | Protection against HIV-1 (500 nM) | Anti-HIV activity over time, XTT end-point (0-5 days of incubation, FIG. 3, 10 μg/ml) | XTT-formazan production in virus-infected cells (1.0-200 μg/ml, HIV-1-infected CEM-SS, 6 days) | Number of viable cells (XTT-formazan), infected versus uninfected cultures (broad range of concentrations) | Anti-HIV activity (fraction and pure compound from H. acuminatus isolation, anti-HIV screen)
CCCC(=O)O[C@@H]1[C@@H](C)[C@@]2(O)[C@@H](C=C(CO)C[C@]3(O)C(=O)C(C)=C[C@@H]23)[C@@H]2C(C)(C)[C@]12OC(=O)CCC [PDBu, phorbol 12,13-dibutyrate, reference compound] | protective against HIV-1 |  |  |  | 
CC(=O)O[C@@]12C[C@@H](C)[C@@]3(O)[C@@H](C=C(CO)C[C@]4(O)C(=O)C(C)=C[C@@H]34)[C@@H]1C2(C)C [prostratin] |  | strikingly apparent after three or more days | only a modest enhancement | essentially identical | striking activity
